Anti-infective test results gathered from many reports (values: NIAID ChemDB through PubChem).

All rows: tests in culture; agent: Measles virus; method: plaque count; endpoint: EC50

ECn is the concentration giving n% inhibition of infection, replication or growth.

SMILES	cells	strain or isolate	value
Nc1ncnc2c1ncn2C[C@H](O)CO	VERO	Niigata-1	>200 µg/mL
CC[C@@H](C(C)C)[C@H](O)[C@@H](O)[C@@H](C)[C@H]1CC[C@H]2[C@@H]3CC(=O)[C@@]4(F)C[C@@H](O)CC[C@]4(C)[C@H]3CC[C@]12C	VERO	MV/Brazil/001/91	3 µM
NC(=O)c1ncn([C@@H]2O[C@H](CO)[C@@H](O)[C@H]2O)n1	VERO	Edmonston	48.2 µM
CC[C@@H](C(C)C)[C@@H](O)[C@H](O)[C@@H](C)[C@H]1CC[C@H]2[C@@H]3CC(=O)[C@H]4C[C@@H](OC(C)=O)CC[C@]4(C)[C@H]3CC[C@]12C	VERO	MV/Brazil/001/91	40 µM
Nc1cc2[nH]cnc2c(=O)[nH]1	VERO	Kitaken-1	0.83 µg/mL
OC[C@H]1O[C@@H]2O[C@H]3[C@H](O)[C@@H](O)[C@@H](O[C@H]4[C@H](O)[C@@H](O)[C@@H](O[C@H]5[C@H](O)[C@@H](O)[C@@H](O[C@H]6[C@H](O)[C@@H](O)[C@@H](O[C@H]7[C@H](O)[C@@H](O)[C@@H](O[C@H]1[C@H](O)[C@H]2O)O[C@@H]7CO)O[C@@H]6CO)O[C@@H]5CO)O[C@@H]4CO)O[C@@H]3CO	VERO	Edmonston	>2560 µM
CSc1nsc(-c2ccccc2)c1C#N	HEP-2	Edmonston	>20 µg/mL
CC[C@@H](C(C)C)[C@H](O)[C@@H](O)[C@@H](C)[C@H]1CC[C@H]2[C@@H]3CC(=O)[C@H]4C[C@@H](OC(C)=O)CC[C@]4(C)[C@H]3CC[C@]12C	VERO	MV/Brazil/001/91	30 µM
N#Cc1c(N2CCCCC2)nsc1-c1ccccc1	HEP-2	Edmonston	>25 µg/mL
NC(=O)c1ncn([C@@H]2O[C@H](CO)[C@@H](O)[C@H]2O)n1	VERO	Sugiyama	7.4 µg/mL
C[C@@H](O)C1=C[C@@H](n2cnc3c(N)ncnc32)[C@H](O)[C@@H]1O	VERO	Sugiyama	0.15 µg/mL
CC[C@@H](C(C)C)[C@H](O)[C@@H](O)[C@@H](C)[C@H]1CC[C@H]2[C@@H]3CC(=O)C4C[C@H](F)CC[C@]4(C)[C@H]3CC[C@]12C	VERO	MV/Brazil/001/91	38 µM
N#Cc1c(N2CCOCC2)nsc1-c1ccccc1	HEP-2	Edmonston	>1 µg/mL
Nc1ncnc2c1c(Cl)cn2[C@@H]1O[C@H](CO)[C@@H](O)[C@H]1O	VERO	Niigata-1	>1.6 µg/mL
CC[C@@H](C(C)C)[C@@H](O)[C@H](O)[C@@H](C)[C@H]1CC[C@H]2[C@@H]3CC(=O)[C@@]4(O)C[C@@H](F)CC[C@]4(C)[C@H]3CC[C@]12C	VERO	MV/Brazil/001/91	16 µM
C#Cc1c(C(N)=O)ncn1[C@@H]1O[C@H](CO)[C@@H](O)[C@H]1O	VERO	Sugiyama	1.1 µg/mL
CC[C@@H](C(C)C)[C@H](O)[C@@H](O)[C@@H](C)[C@H]1CC[C@H]2[C@@H]3CC(=O)[C@H]4C[C@H](O)[C@H](O)C[C@]4(C)[C@H]3CC[C@]12C	VERO	MV/Brazil/001/91	65 µM
NC(=O)c1[nH]nc([C@@H]2O[C@H](CO)[C@@H](O)[C@H]2O)c1O	VERO	Kitaken-1	0.16 µg/mL
N#Cc1c(SCCO)nsc1-c1ccccc1	HEP-2	Edmonston	>5 µg/mL
CC[C@H](/C=C/[C@@H](C)[C@H]1CC[C@H]2[C@@H]3CC(=O)[C@@]4(F)CC=CC[C@]4(C)[C@H]3CC[C@]12C)C(C)C	VERO	MV/Brazil/001/91	701 µM
O=c1cnn([C@@H]2O[C@H](CO)[C@@H](O)[C@H]2O)c(=O)[nH]1	VERO	Sugiyama	0.66 µg/mL

For reference, 3 entries again:

Nc1ncnc2c1c(Cl)cn2[C@@H]1O[C@H](CO)[C@@H](O)[C@H]1O ; cells: VERO ; strain or isolate: Niigata-1 ; value: >1.6 µg/mL
N#Cc1c(N2CCOCC2)nsc1-c1ccccc1 ; cells: HEP-2 ; strain or isolate: Edmonston ; value: >1 µg/mL
Nc1cc2[nH]cnc2c(=O)[nH]1 ; cells: VERO ; strain or isolate: Kitaken-1 ; value: 0.83 µg/mL

Neighbouring rows are from separate reports.